Key:
[1] = tested on: Ld39 amastigotes; experiment: In vitro anti-amastigote activity, Ld39 amastigotes in mouse PEM
[2] = tested on: Lm50122 promastigotes; experiment: In vitro anti-promastigote activity, Lm50122; format: cell-based, Leishmania major; conditions: IC50 against PEM/IC50 against promastigotes
Method: (§1) Cell Lines and Cell Culture. Promastigotes of Leishmania donovani (wild type LdAG83, pentamidine-resistant LdAG83-PentR50, and SSG-resistant Ld39) and Leishmania major [MHOM/IL/67/JERICHO II (Lm50122), from ATCC] were used in this study.
(§2) In Vitro Anti-Promastigote Activity. The viability of promastigotes was determined by the Cell Titer 96° Aqueous Assay (Promega) that employs a tetrazolium compound (MTS, 2-(4,5-Dimethylthiazol-2-yl-)-5-[3-(carboxymethoxy)phenyl]-2-(4-sulfophenyl)-2H-tetrazolium) and electron coupling reagent, phenazine methosulfate (PMS).^7 Promastigotes were seeded into 96-well flat bottom microtiter plate at 1×10^5 cells per well in a final volume of 100 μL medium and incubated with a series concentration of synthetic flavonoid dimers or known antileishmanials. The parasites were incubated at 27° C. for 72 hrs. Fresh solution of 2 mg/mL MTS and 0.92 mg/mL PMS were prepared in a ratio of 20:1 (MTS:PMS). After 72 hrs incubation, 10 μL of MTS:PMS mixture was added into each well of microtiter plate. The plate was then incubated at 27° C. for 4 hrs for color development. After 4 hrs incubation, the OD values were determined at 490 nm using automatic microtiter plate reader (Bio-Rad).

[3] = tested on: LdAG83PentR50 promastigotes (pentamidine-resistant); format: cell-based, Leishmania donovani; conditions: IC50 against PEM/IC50 against promastigotes
Method: as §1
No pentamidine or sodium stibogluconate was added to the L. donovani wild type (LdAG83) and L. major wild type (Lm50122). The mouse macrophage cell line, Raw264.7, was used for the determination of the relative toxicity of the compounds of the invention. […] They were maintained at 37° C. in a humidified atmosphere with 5% CO2. The cells were split constantly after a confluent monolayer has been formed. To split cells, the plate was washed briefly with PBS, treated with 0.05% trypsin-EDTA and harvested by centrifugation.
as §2

[4] = tested on: LdAG83 promastigotes (wild type); experiment: In vitro anti-promastigote activity, LdAG83; format: cell-based, Leishmania donovani; conditions: IC50 against PEM/IC50 against promastigotes
Method: as §1, §2

[5] = tested on: Ld39 promastigotes (SSG-resistant); experiment: In vitro anti-promastigote activity, Ld39; format: cell-based, Leishmania donovani; conditions: IC50 against PEM/IC50 against promastigotes
Method: as §1, §2

Structure (SMILES) | Therapeutic index relative to PEM [1] | Therapeutic index relative to PEM, Lm50122 [2] | Therapeutic index relative to PEM, LdAG83PentR50 [3] | Therapeutic index relative to PEM, LdAG83 [4] | Therapeutic index relative to PEM, Ld39 [5]
O=c1c(O)c(-c2ccc(O)c(O)c2)oc2cc(O)cc(O)c12 [Quercetin, quercetin] | >16.7 | >1.0 | >1.4 | >1.0 | >1.0
O=c1cc(-c2ccc(O)c(O)c2)oc2cc(O)cc(O)c12 [Luteolin, luteolin] | 10.1 | 0.8 | 0.9 | 0.7 | 0.9
O.O.O.O.O.O.O.O.O.O=C([O-])[C@@H]1[O][Sb]2([O-])([O][Sb]34([OH])[O][C@H]([C@H](O)CO)[C@H]([O]3)[C@H](C(=O)[O-])[O]4)[O][C@H]([C@H](O)CO)[C@@H]1[O]2.[Na+].[Na+].[Na+] [Sodium stibogluconate, sodium stibogluconate, reference compound] | >16.3 | – | – | – | –
O=c1cc(-c2ccc(OCCOCCN(CCOCCOc3ccc(-c4cc(=O)c5ccccc5o4)cc3)Cc3ccncc3)cc2)oc2ccccc12 [Compound 21, 1,13-Bis[4′-(4H-chromen-4-on-2-yl)phenyl]-N-(4-pyridylmethyl)-1,4,10,13-tetraoxa-7-azamidecane] | >139.7 | – | >676.9 | – | –
N=C(N)c1ccc(OCCCCCOc2ccc(C(=N)N)cc2)cc1 [Pentamidine] | >1.0 | 3.9 | 0.4 | 1.9 | 5.7
NC[C@@H]1O[C@H](O[C@H]2[C@@H](O)[C@H](O[C@@H]3[C@@H](O)[C@H](N)C[C@H](N)[C@H]3O[C@H]3O[C@H](CO)[C@@H](O)[C@H](O)[C@H]3N)O[C@@H]2CO)[C@H](N)[C@@H](O)[C@@H]1O [Paromomycin, paromomycin] | >2.4 | >1.1 | >1.2 | >1.6 | >4.1
C[C@@H]1[C@H](O)[C@@H](C)/C=C/C=C/C=C/C=C/C=C/C=C/C=C/[C@H](O[C@@H]2O[C@H](C)[C@@H](O)[C@H](N)[C@@H]2O)C[C@@H]2O[C@](O)(C[C@@H](O)C[C@@H](O)[C@H](O)CC[C@@H](O)C[C@@H](O)CC(=O)O[C@H]1C)C[C@H](O)[C@H]2C(=O)O [Amphotericin B, amphotericin B] | 119.4 | 21.8 | 145.1 | 82.2 | 77.9
